Results taken from US9115083B2 (Simpson Biotech Co., Ltd, priority 2011, dated 2015).

By UniProt entry, the sequences of proteins in these tests, tags left out. Residues count along the entry.
UniProt P27958, 1027-1657 limits assumed: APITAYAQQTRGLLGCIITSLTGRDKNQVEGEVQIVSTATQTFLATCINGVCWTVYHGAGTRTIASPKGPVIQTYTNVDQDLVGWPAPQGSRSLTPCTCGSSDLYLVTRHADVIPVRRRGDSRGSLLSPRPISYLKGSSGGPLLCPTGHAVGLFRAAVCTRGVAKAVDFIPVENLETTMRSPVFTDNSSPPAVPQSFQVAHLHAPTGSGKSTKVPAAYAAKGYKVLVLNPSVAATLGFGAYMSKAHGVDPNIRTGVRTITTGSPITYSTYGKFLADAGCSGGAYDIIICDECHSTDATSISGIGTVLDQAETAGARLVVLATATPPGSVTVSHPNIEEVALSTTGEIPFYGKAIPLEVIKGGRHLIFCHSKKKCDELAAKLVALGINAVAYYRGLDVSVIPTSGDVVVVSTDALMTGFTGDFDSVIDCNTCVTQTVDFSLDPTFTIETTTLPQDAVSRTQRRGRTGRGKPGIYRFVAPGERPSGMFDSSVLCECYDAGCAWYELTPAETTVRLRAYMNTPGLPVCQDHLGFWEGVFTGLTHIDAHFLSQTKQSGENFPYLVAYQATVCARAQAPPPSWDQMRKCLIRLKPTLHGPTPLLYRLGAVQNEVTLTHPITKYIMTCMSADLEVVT
UniProt P27958, 1658-1711 partner limits assumed: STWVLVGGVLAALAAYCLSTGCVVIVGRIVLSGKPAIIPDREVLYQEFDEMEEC

Biological target: HCV NS3/4A protease (Hepatitis C virus genotype 1a (isolate H77) (HCV), UniProt P27958)
Assay: HCV protease assay (fluorimetric, FRET substrate)
Details: read-out: IC50 against HCV protease, 30 min at 37° C., triplicate

| SMILES | IC50 |
| --- | --- |
| CC(C)CC1=C(c2ccc(O)cc2)C(=O)N(C(Cc2ccc(O)cc2)C(=O)O)C1=O (stereo not drawn) | > 200 µM |
| CC(C)CC1=C(c2ccc(O)cc2)C(=O)N(C(CC(C)C)C(=O)O)C1=O (single isomer, unassigned) | > 200 µM |
| CC(C)CC1=C(c2ccc(O)cc2)C(=O)N(C(C(=O)O)C(C)O)C1=O (stereo not drawn) | > 200 µM |
